Test results: article PMC8178753
Weaker means in comparison with the reference protein, sequence or condition of that experiment. Protein sequences can lack the tags named with them.

Molecular target: T1, TbKKT2 central domain (562-677) (Trypanosoma brucei) (UniProt Q383M7)
T1 sequence (looked up): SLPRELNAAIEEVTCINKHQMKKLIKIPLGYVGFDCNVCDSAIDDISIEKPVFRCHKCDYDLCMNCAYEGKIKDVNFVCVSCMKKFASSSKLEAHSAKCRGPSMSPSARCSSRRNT
Experiment: EMSA
Details: EMSA: 200 nM dsDNA, 0.78-30 µM protein, 30 min RT, native PAGE at 4°C; recombinant protein; residues 562-677; protein details: His6 N-terminal, TEV-cleaved

Sequence | binding result
CGCAGATCCGCGGGGCCCGTGCCGACGCGCGGGCATTGTCCGTGAGGTGA (double strand) [50 mer 74% GC (BA3300/BA3301)] | binds more weakly
AGGTAACTAGAAGAATTGTAATATTCTAAATGTTGATCCATTTGAATCAT (double strand) [50 mer 26% GC (BA3298/BA3299)] | binds more weakly
CAATATGTAAGGTGTTTTGGTGTAAAACACGCATTCTTGCATAACATGCA (double strand) [50 mer CEN (BA3296/BA3297)] | binds more weakly
